This data set has as its system His-ScbZIP72 (Saccharum spp. hybrid (sugarcane) cultivar ROC22). The data set is described as follows: EMSA. To be noted: LightShift Chemiluminescent EMSA Kit (Thermo) per manual; pH and temperature not stated; recombinant protein; protein details: His (pET-28a); label: 3'-biotin.

The exact form of at least one protein or probe is not confirmed.

“TGTCGGTTGTACGTGTCCAGCACCTTTGTTCGGTGCGTGTCCTTTTCGGGCATCTGTGCCCATCTTCCTTTGTCGGCCACGTTGCCTTTGCTTA (double strand) [sL]”: the binding result was “binds”.

These data come from paper PMC10965894.
